Source: PMC12029531, “Selenium in Action: Exploring the Biological Wonders of Hydroselenite Salts” (Molecules, 2025)
Values after ≈ are worked out from the molar mass of the structure shown.

Columns and labels:
Assay in all cases: MIC and MBC, broth micro-dilution
Format in all cases: cell-based
Escherichia coli = conditions: E. coli
Klebsiella pneumoniae = conditions: K. pneumoniae
Staphylococcus aureus = conditions: S. aureus
[1] = tested on: Staphylococcus epidermidis; conditions: S. epidermidis
Pseudomonas aeruginosa = conditions: P. aeruginosa

Structure (SMILES): COc1cc(Cc2cnc(N)nc2N)cc(OC)c1OC [AB-2, trimethoprim]
- MBC (Escherichia coli): 6.25 µg/mL (≈ 21.5 µM)
- MIC (Escherichia coli; 24 h): 1.56 µg/mL (≈ 5.37 µM)
- MBC (Klebsiella pneumoniae): 12.5 µg/mL (≈ 43.1 µM)
- MIC (Klebsiella pneumoniae; 24 h): 6.25 µg/mL (≈ 21.5 µM)
- MBC (Staphylococcus aureus): 3.13 µg/mL (≈ 10.8 µM)
- MIC (Staphylococcus aureus; 24 h): 1.56 µg/mL (≈ 5.37 µM)
- MBC [1]: >200 µg/mL
- MIC ([1]; 24 h): >200 µg/mL
- MBC (Pseudomonas aeruginosa): >200 µg/mL
